# Source: publication PMC6689899, “An essential bifunctional enzyme in Mycobacterium tuberculosis for itaconate dissimilation and leucine catabolism” (Proceedings of the National Academy of Sciences of the …, 2019)
# What was measured:
# Assay in all cases: purified protein
# [1] = test system: CC(C)(COP(=O)(O)OP(=O)(O)OC[C@H]1O[C@@H](n2cnc3c(N)ncnc32)[C@H](O)[C@@H]1OP(=O)(O)O)[C@@H](O)C(=O)NCCC(=O)NCCSC(=O)C[C@](C)(O)C(=O)O
# [2] = test system: CC(C)(COP(=O)(O)OP(=O)(O)OC[C@H]1O[C@@H](n2cnc3c(N)ncnc32)[C@H](O)[C@@H]1OP(=O)(O)O)[C@@H](O)C(=O)NCCC(=O)NCCSC(=O)C[C@](C)(O)CC(=O)O
# [3] = test system: CCC(=O)SCCNC(=O)CCNC(=O)[C@H](O)C(C)(C)COP(=O)(O)OP(=O)(O)OC[C@H]1O[C@@H](n2cnc3c(N)ncnc32)[C@H](O)[C@@H]1OP(=O)(O)O
# [4] = test system: CC(=O)SCCNC(=O)CCNC(=O)[C@H](O)C(C)(C)COP(=O)(O)OP(=O)(O)OC[C@H]1O[C@@H](n2cnc3c(N)ncnc32)[C@H](O)[C@@H]1OP(=O)(O)O
substance,measurement,setting,value
Rv2498c (Mycobacterium tuberculosis H37Rv),Km,[1],75 ± 19 µM
same,kcat/Km,[1],230000 M⁻¹ s⁻¹
same,Km,[2],90 ± 22 µM
same,kcat/Km,[2],390000 M⁻¹ s⁻¹
same,Km,[3],729 ± 163 µM
same,kcat/Km,[3],110 M⁻¹ s⁻¹
same,Km,[4],"2,124 ± 200 µM"
same,kcat/Km,[4],69 M⁻¹ s⁻¹
